# Measurements from PubChem BioAssay AID602313 (National Center for Advancing Translational Sciences (NCATS), 2012).
# This is a selection; strong and weak results do not stand in their true shares. Some structures show a salt or complex split into parts, the way the source records it. Active and inactive are the calls of the source. Calls come from the whole dose curve; as a rule, active = well fitted inhibition curve with a large enough effect; inconclusive = small, poorly fitted or top-dose-only effect; inactive = flat fitted curve, though single readings scatter.
# Assay: qHTS for Inhibitors of Vif-A3F Interactions: qHTS; note: % of control where 0% means no effect; nearly all actives have a fitted effect of over 65% in size
# Conditions: HeLa A3F-eYFP + Vif (tagged APOBEC3F with the HIV-1 protein that degrades it), YFP fluorescence increase; at 46.1 µM (top of the series)
# Excerpt: The recent discovery and characterization of host restriction factors, which provide a potent defense to invading retroviruses, has provided new targets for antiviral drug development. APOBEC3G (A3G) and APOBEC3F (A3F) are potent cytidine deaminases that block HIV-1 replication; HIV-1 expresses the Vif protein, which counteracts A3G and A3F by binding to them and inducing their proteasomal degradation. The Vif-A3G and Vif-A3F interactions provide two potential targets for development of small molecules which can interfere with the ability of Vif to degrade A3G or A3F. […] To identify inhibitors that can interfere with Vif mediated degradation of A3G and A3F, we have developed Hela cell lines that stably express A3G or A3F tagged with eYFP at the C-terminal end (A3G-eYFP or A3F-eYFP, respectively) and Vif. In the absence of an inhibitor, Vif induces degradation of A3G-eYFP and A3F-eYFP, and the cells are not fluorescent. In the presence of an inhibitor, it is expected that Vif will be unable to degrade A3G-eYFP and/or A3F-eYFP, resulting in an increase in yellow fluorescence. In this assays Vif A3F was screened against the Molecular Library Small Molecule Repository (MLSMR). NIH Chemical Genomics Center [NCGC] NIH Molecular Libraries Probe Centers Network [MLPCN] MLPCN Grant: MH093245 Assay Submitter (PI): Vinay Pathak, National Cancer Institute
# 5 uL of 700 cells/well of A3F-YFP cells are dispensed into black, clear bottom plates. The plates are incubated overnight at 37 deg C. 23 nL of compounds are added by pintool. The plates are incubated overnight at 37 deg C and then read on the TTP Acumen (Ex 488/ Em 500-530).
row,Compound,"activity, negative = active"
1,N/C(=N\O)c1c(N)no[n+]1[O-],inactive: -0.11%
2,CCOC(=O)N1CCC(Nc2ccc(C)cc2)CC1,inactive: -13.9%
3,CCc1cc(C(=O)NCC2(N3CCCCC3)CCCCC2)sc1C,inactive: -0.924%
4,O=C(OC1CN2CCC1CC2)C1c2ccccc2C=Cc2ccccc21 (stereo not drawn),inactive: -0.828%
5,O=C(O)c1cccc(Nc2c([N+](=O)[O-])cc([N+](=O)[O-])cc2[N+](=O)[O-])c1,inactive: -13.2%
6,O=C(NCC1(N2CCOCC2)CCCCC1)c1cc(Br)ccc1Cl,inactive: -2.1%
7,COc1cc(C(=O)NCC2(N3CCOCC3)CCCCC2)cc(OC)c1C,inactive: -5.73%
8,COc1ccc(C(=O)NCC2(N3CCOCC3)CCCCC2)cc1OC,inactive: -7.11%
9,c1ccc(CN2CCC(Nc3ccccc3)CC2)cc1,inactive: -4.03%
10,Cc1cc(N(CCCl)CCCl)ccc1C=O,inactive: 10.5%
11,O=C(NCC1(N2CCOCC2)CCCCC1)c1ccccc1,inactive: 2.34%
12,CCCN1CCC(Nc2cc(OC)cc(OC)c2)CC1,inactive: 8.59%
13,CN(C)C1(CNC(=O)c2cccc(C#N)c2)CCCCC1,inactive: -10.2%
14,CC(C)(C)OC(=O)N1CCC(N(C(=O)c2ccccc2)c2ccc(Cl)cc2)CC1,inactive: 1.86%
15,O=C(NCC1(N2CCOCC2)CCCCC1)c1ccc([N+](=O)[O-])cc1,inactive: -4.28%
16,N#Cc1ccc(C(=O)NCC2(N3CCCCC3)CCCCC2)cc1,inactive: 6.42%
17,O=C(NCC1(N2CCOCC2)CCCCC1)c1ccccc1[N+](=O)[O-],inactive: -3.28%
18,CCOC(=O)C(CC)C1=NC(C)(C)Cc2ccccc21.O=[N+]([O-])c1cc([N+](=O)[O-])c(O)c([N+](=O)[O-])c1 (stereo not drawn),inactive: -1.78%
19,Cc1ccccc1NC1(C#N)CCN(Cc2ccccc2)CC1,inactive: 3.02%
20,CCN1CCC(Nc2cccc(F)c2)CC1,inactive: 1.13%
21,O=C(NCC1(N2CCCCC2)CCCCC1)c1ccco1,inactive: 3.14%
22,CC(C)(C)c1ccc(C(=O)NCC2(N3CCOCC3)CCCCC2)cc1,inactive: 0.658%
23,CN(C)c1ccc(C(=O)NCC2(N3CCCCC3)CCCCC2)cc1,inactive: -3.19%
24,Cn1c(=O)[nH]cc(N(CCCl)CCCl)c1=O,inactive: -8.98%
25,Cc1ccccc1C(=O)NCC1(N(C)C)CCCCC1,inactive: 6.23%

row,Compound,"activity, negative = active"
1,COc1cc(OC)cc(C(=O)NCC2(N3CCCCC3)CCCCC2)c1,inactive: -11.5%
2,CN(C)C1(CNC(=O)c2ccc(C(C)(C)C)cc2)CCCCC1,inactive: 3.04%
3,CC(=O)N(c1ccccc1)C1CCNCC1,inactive: -0.798%
4,Cc1ccc(NC2(C#N)CCN(Cc3ccccc3)CC2)cc1,inactive: 0%
5,Cc1ccc(C(=O)NCC2(N3CCCCC3)CCCCC2)o1,inactive: -5.08%
6,Fc1ccccc1NC1CCN(Cc2ccccc2)CC1,inactive: -11.8%
7,Cc1ccc(Nc2c([N+](=O)[O-])cc([N+](=O)[O-])cc2[N+](=O)[O-])cc1,inactive: 10.1%
8,CCC(CO)(C(=O)OC1CN2CCC1CC2)c1ccccc1 (stereo not drawn),inactive: -5.92%
9,COc1cc(OC)cc(C(=O)NCC2(N3CCOCC3)CCCCC2)c1,inactive: 7.52%
10,COc1cc(C(=O)NCC2(N3CCOCC3)CCCCC2)cc(OC)c1OC,inactive: -3.36%
11,COc1cccc(C(=O)N(c2cc(C)cc(C)c2)C2CCN(C(=O)OC(C)(C)C)CC2)c1,inactive: 1.63%
12,CN1CCC(Nc2ccc(Cl)cc2)CC1,inactive: 0.0532%
13,CCOc1ncccc1C(=O)NCC1(N2CCOCC2)CCCCC1,inactive: 2.21%
14,CN1CCC(Nc2ccc(F)c(Cl)c2)CC1,inactive: -0.0638%
15,CCCOc1ccc(C(=O)NCC2(N(C)C)CCCCC2)cc1,inactive: -0.0746%
16,CC(C)(C)OC(=O)N1CCC(Nc2ccccc2)CC1,inactive: 0.271%
17,O=C(O)C1(Nc2ccccc2)CCN(Cc2ccccc2)CC1,inactive: -10.8%
18,O=C(NCC1(N2CCOCC2)CCCCC1)c1cc2ccccc2o1,inactive: -22.6%
19,O=C(NCC1(N2CCCCC2)CCCCC1)c1ccc(Cl)nc1,inactive: 0.57%
20,Cc1cc(C)cc(N(C(=O)c2ccccc2)C2CCN(C(=O)OC(C)(C)C)CC2)c1,inactive: -6.27%
21,CCOC(=O)N1CCC(Nc2ccc(OC)cc2)CC1,inactive: -6.52%
22,O=C(NCC1(N2CCCCC2)CCCCC1)c1ccc(Cl)s1,inactive: -4.22%
23,N#CC1(Nc2ccccc2)CCN(Cc2ccccc2)CC1,inactive: 13%
24,O=C(OC1CN2CCC1CC2)C1c2ccccc2Oc2ccccc21 (stereo not drawn),inactive: -7.59%
25,COc1ccc(Cl)cc1C(=O)NCC1(N2CCOCC2)CCCCC1,inactive: -6.48%

row,Compound,"activity, negative = active"
1,O=C1C(O)=C([N+](=O)[O-])C(=O)C(O)=C1[N+](=O)[O-],inactive: -5.36%
2,O=C(NCC1(N2CCCCC2)CCCCC1)c1ccc(=O)[nH]c1,inactive: 1.09%
3,O=C(NCC1(N2CCCCC2)CCCCC1)c1cccs1,inactive: -19.7%
4,COc1ccc(C(=O)NCC2(N3CCCCC3)CCCCC2)cc1,inactive: 1.03%
5,CC(C)(C)OC(=O)N1CCC(N(C(=O)c2ccccc2)c2ccc(F)cc2)CC1,inactive: 1.45%
6,COc1ccc(C(=O)NCC2(N3CCCCC3)CCCCC2)c(OC)c1OC,inactive: -1.65%
7,CSc1ccccc1C(=O)NCC1(N2CCCCC2)CCCCC1,inactive: 0.0167%
8,Cc1cccc(NC2(C#N)CCN(Cc3ccccc3)CC2)c1,inactive: -3.78%
9,CCOC(=O)N1CCC(Nc2cccc(C)c2)CC1,inactive: 2%
10,COc1cc(C(=O)NCC2(N(C)C)CCCCC2)ccc1OC(F)F,inactive: 7.41%
11,CCOc1ccc(C)cc1CN(CCCl)CCCl,inactive: 3.46%
12,O=C(NCC1(N2CCOCC2)CCCCC1)c1ccc(Cl)cc1,inactive: -0.894%
13,O=C1CCN(Cc2ccccc2)CC1,inactive: 3.33%
14,O=P1(N(CCCl)CCCl)SCCCS1,inactive: 10.7%
15,CCCCOc1ccc(C(=O)NCC2(N3CCOCC3)CCCCC2)cc1,inactive: -6.44%
16,O=C(NCC1(N2CCCCC2)CCCCC1)c1ccc(F)cc1,inactive: -31.4%
17,COc1ccc(NC2CCN(CCc3ccccc3)CC2)c(OC)c1,inactive: 1.16%
18,CCOC(=O)N1CCC(Nc2ccc(F)cc2)CC1,inactive: -5.92%
19,COc1ccccc1C(=O)NCC1(N2CCOCC2)CCCCC1,inactive: 4.34%
20,CCCOc1cccc(C(=O)NCC2(N3CCOCC3)CCCCC2)c1,inactive: -6.24%
21,O=C(NCC1(N2CCCCC2)CCCCC1)c1cccc(C(F)(F)F)c1,inactive: -2.52%
22,O=[N+]([O-])c1cc([N+](=O)[O-])c(NCC2CCS(=O)(=O)C2)c([N+](=O)[O-])c1 (stereo not drawn),inactive: -8.97%
23,CN1CCN(CCOC(=O)C(O)(c2ccccc2)c2ccccc2)CC1,inactive: 2.88%
24,CC(C)c1ccc(C(=O)NCC2(N3CCOCC3)CCCCC2)cc1,inactive: 3.41%
25,COc1ccc(NC2CCN(C(=O)OC(C)(C)C)CC2)cc1,inactive: 0.817%

row,Compound,"activity, negative = active"
1,COc1cc(C(=O)NCC2(N3CCCCC3)CCCCC2)ccc1OC(F)F,inactive: -5.21%
2,O=C(NCC1(N2CCOCC2)CCCCC1)c1cc(=O)[nH]c2ccccc12,inactive: 1.49%
3,O=C(NCC1(N2CCCCC2)CCCCC1)c1ccc(OC(F)F)cc1,inactive: -9.23%
4,O=C(NCC1(N2CCCCC2)CCCCC1)c1cccc([N+](=O)[O-])c1,inactive: 0.991%
5,CCOc1ccc(C(=O)NCC2(N3CCOCC3)CCCCC2)cc1,inactive: 6.75%
6,CSc1ccc(C(=O)NCC2(N3CCOCC3)CCCCC2)cc1,inactive: -0.103%
7,CCN1CCC(Nc2ccc(Cl)cc2)CC1,inactive: -2.55%
8,N#CC1(Nc2ccccc2)CCN(CCc2ccccc2)CC1,inactive: 1.66%
9,CN1CCC(Nc2cccc(F)c2)CC1,inactive: -0.979%
10,COc1ccc2c(c1O)-c1c(O)c(OC)cc3c1[C@H](C2)[N+](C)(C)CC3.O=[N+]([O-])c1cc([N+](=O)[O-])c([O-])c([N+](=O)[O-])c1[O-],inactive: 4.48%
11,O=C(NCC1(N2CCCCC2)CCCCC1)c1cncc(Br)c1,inactive: 2.37%
12,O=C(OC1CN2CCC1CC2)c1ccc([N+](=O)[O-])cc1 (stereo not drawn),inactive: 22.3%
13,CCCCOc1ccccc1C(=O)NCC1(N2CCOCC2)CCCCC1,inactive: -9.55%
14,Cc1ccc(C(=O)NCC2(N(C)C)CCCCC2)o1,inactive: -0.597%
15,O=C(NCC1(N2CCOCC2)CCCCC1)c1ccccc1Br,inactive: 3.69%
16,CCCOc1ccc(C(=O)NCC2(N(C)C)CCCCC2)cc1OC,inactive: 5.48%
17,O=[N+]([O-])c1cc([N+](=O)[O-])c(Nc2ccc(Cl)cc2)c([N+](=O)[O-])c1,inactive: 0.97%
18,COc1ccc(CN(CCCl)CCCl)cc1Cl,inactive: -8.5%
19,O=[N+]([O-])c1cc([N+](=O)[O-])c(OC2CCCCC2O)c([N+](=O)[O-])c1 (stereo not drawn),inactive: 1.65%
20,CN(C)c1cccc(C(=O)NCC2(N3CCCCC3)CCCCC2)c1,inactive: 15.3%
21,CC(C)c1ccc(NC2CCN(C(=O)OC(C)(C)C)CC2)cc1,inactive: 15.2%
22,COc1cc(OC)c(C(=O)NCC2(N(C)C)CCCCC2)cc1OC,inactive: 1.21%
23,O=C(NCC1(N2CCOCC2)CCCCC1)c1cc(F)c(F)cc1Cl,inactive: -11%
